Columns and labels:
[1] = molecular target: recombinant human matriptase (Homo sapiens, UniProt Q9Y5Y6); experiment: Enzyme inhibition assay with purified matriptase (Ki, dose-response); type: biochemical
[2] = molecular target: recombinant human thrombin (Homo sapiens, UniProt P00734); experiment: Enzyme inhibition assay with purified thrombin (Ki, dose-response); type: biochemical
[3] = molecular target: factor Xa (Homo sapiens, UniProt P00742); experiment: Enzyme inhibition assay with purified factor Xa (Ki, dose-response); type: biochemical; conditions: for factor Xa activity, Mean (Fig. 2d): normalized, 0 nM = 100
[4] = molecular target: TMPRSS2 expressed in HEK293T cells (Homo sapiens, UniProt O15393); experiment: Inhibition of cellular TMPRSS2 activity on HEK293T cells transiently expressing TMPRSS2; type: cell-based; conditions: 2 h; for normalized fluorescence intensity, HEK293T TMPRSS2, Mean (Fig. 4b): corrected for mock-transfected cells
[5] = tested on: lentiviral pseudoparticles carrying SARS-CoV-2 Wuhan-Hu-1 spike, Caco-2 cells; experiment: Pseudovirus inhibition assay, wild-type (Wuhan-Hu-1) spike; conditions: for SARS-CoV-2 spike driven entry, Mean (0 nM = 100): Fig. 5a, Wuhan-Hu-1 spike pseudoparticles
[6] = tested on: lentiviral pseudoparticles carrying SARS-CoV-2 Alpha (B.1.1.7) spike, Caco-2 cells; experiment: Pseudovirus inhibition assay, Alpha spike; conditions: for SARS-CoV-2 spike driven entry, Mean (0 nM = 100): Fig. 5b, Alpha spike pseudoparticles
[7] = tested on: lentiviral pseudoparticles carrying SARS-CoV-2 Beta (B.1.351) spike, Caco-2 cells; experiment: Pseudovirus inhibition assay, Beta spike; conditions: for SARS-CoV-2 spike driven entry, Mean (0 nM = 100): Fig. 5c, Beta spike pseudoparticles

Chains of the proteins cited; added tags and fusions are not shown. Residues count along the entry.
UniProt Q9Y5Y6, whole entry: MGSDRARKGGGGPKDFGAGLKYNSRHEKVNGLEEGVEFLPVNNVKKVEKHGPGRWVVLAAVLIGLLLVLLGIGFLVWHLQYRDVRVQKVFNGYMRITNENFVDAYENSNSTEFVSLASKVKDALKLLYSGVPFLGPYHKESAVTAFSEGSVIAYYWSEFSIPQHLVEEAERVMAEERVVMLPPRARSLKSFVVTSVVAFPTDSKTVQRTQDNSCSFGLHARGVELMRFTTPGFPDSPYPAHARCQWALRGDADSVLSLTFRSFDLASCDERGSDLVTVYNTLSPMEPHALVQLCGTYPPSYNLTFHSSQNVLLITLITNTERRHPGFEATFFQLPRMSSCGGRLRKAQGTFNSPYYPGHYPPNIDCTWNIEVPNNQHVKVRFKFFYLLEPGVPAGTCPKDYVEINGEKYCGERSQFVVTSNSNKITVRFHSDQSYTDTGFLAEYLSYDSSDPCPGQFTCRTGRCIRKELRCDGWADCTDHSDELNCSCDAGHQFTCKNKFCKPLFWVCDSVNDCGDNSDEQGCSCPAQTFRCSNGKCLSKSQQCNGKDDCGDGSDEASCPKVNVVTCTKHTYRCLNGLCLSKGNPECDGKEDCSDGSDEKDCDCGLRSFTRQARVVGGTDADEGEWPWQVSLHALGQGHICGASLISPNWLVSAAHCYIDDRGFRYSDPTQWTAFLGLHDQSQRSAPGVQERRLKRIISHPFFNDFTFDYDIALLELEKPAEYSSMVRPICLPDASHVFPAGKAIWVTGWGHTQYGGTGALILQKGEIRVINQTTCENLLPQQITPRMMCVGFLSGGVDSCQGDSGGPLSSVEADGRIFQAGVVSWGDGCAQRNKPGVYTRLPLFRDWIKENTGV
UniProt P00742, 235-488 limits assumed: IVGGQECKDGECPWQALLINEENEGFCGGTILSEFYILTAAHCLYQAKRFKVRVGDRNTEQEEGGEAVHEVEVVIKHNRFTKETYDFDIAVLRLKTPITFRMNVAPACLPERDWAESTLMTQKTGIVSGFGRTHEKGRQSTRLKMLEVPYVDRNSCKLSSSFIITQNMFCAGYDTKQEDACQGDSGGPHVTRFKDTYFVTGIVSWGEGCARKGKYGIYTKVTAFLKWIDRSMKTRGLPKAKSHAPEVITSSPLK
UniProt P00742, 41-179 partner limits assumed: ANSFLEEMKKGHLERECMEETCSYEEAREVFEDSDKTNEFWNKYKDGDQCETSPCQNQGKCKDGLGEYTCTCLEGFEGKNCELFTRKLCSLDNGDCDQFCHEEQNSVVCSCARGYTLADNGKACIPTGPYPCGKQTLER
UniProt O15393, whole entry: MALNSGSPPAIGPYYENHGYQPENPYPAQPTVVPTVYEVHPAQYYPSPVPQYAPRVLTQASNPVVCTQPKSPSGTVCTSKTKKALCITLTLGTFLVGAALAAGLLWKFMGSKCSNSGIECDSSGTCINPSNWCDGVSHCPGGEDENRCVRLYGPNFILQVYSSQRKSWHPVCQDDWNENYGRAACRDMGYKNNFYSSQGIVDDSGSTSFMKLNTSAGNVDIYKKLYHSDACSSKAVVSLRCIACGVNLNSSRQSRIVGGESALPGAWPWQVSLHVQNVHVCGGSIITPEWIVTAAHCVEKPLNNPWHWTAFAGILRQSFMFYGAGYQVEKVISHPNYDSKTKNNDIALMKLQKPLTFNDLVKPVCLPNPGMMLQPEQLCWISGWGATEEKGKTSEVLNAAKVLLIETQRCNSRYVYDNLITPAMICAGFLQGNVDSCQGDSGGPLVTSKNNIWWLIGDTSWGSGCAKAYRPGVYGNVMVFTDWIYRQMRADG

CC(=O)N[C@H](CCCNC(=N)N)C(=O)N[C@@H](CC1CCC1)C(=O)NC(CCCNC(=N)N)C(=O)c1nc2ccccc2s1 (some centres unmarked)
Selectivity index Matriptase ([1]; quotient Ki matriptase / Ki TMPRSS2): 0.5
Ki ([1]; read-out: Ki Matriptase, 30 min preincubation, substrate Boc-Gln-Ala-Arg-AMC): 0.03 µM
Ki Thrombin ([2]; 30 min preincubation, substrate D-Phe-Homopro-Arg-pNA): n.i.
Selectivity index Thrombin ([2]; quotient Ki thrombin / Ki TMPRSS2): > 867
Ki ([2]; read-out: Ki Thrombin, 30 min preincubation, substrate D-Phe-Homopro-Arg-pNA): > 50 µM
factor Xa activity, Mean (Fig. 2d) ([3]; 0.02 nM): 80.6823
factor Xa activity, Mean (Fig. 2d) ([3]; 0.04 nM): 88.0695
factor Xa activity, Mean (Fig. 2d) ([3]; 0.2 nM): 90.3417
factor Xa activity, Mean (Fig. 2d) ([3]; 2 nM): 86.223
factor Xa activity, Mean (Fig. 2d) ([3]; 20 nM): 73.4383
factor Xa activity, Mean (Fig. 2d) ([3]; 200 nM): 51.421
factor Xa activity, Mean (Fig. 2d) ([3]; 10000 nM): 14.3467
factor Xa activity, Mean (Fig. 2d) ([3]; 100000 nM): 8.523
factor Xa activity, Mean (control = 100), S6c ([3]; inhibitor 0.02 nM): 80.6823
factor Xa activity, Mean (control = 100), S6c ([3]; inhibitor 0.04 nM): 88.0695
factor Xa activity, Mean (control = 100), S6c ([3]; inhibitor 0.2 nM): 90.3417
factor Xa activity, Mean (control = 100), S6c ([3]; inhibitor 2 nM): 86.223
factor Xa activity, Mean (control = 100), S6c ([3]; inhibitor 20 nM): 73.4383
factor Xa activity, Mean (control = 100), S6c ([3]; inhibitor 200 nM): 51.421
factor Xa activity, Mean (control = 100), S6c ([3]; inhibitor 10000 nM): 14.3467
factor Xa activity, Mean (control = 100), S6c ([3]; inhibitor 100000 nM): 8.523
Selectivity index Factor Xa ([3]; quotient Ki factor Xa / Ki TMPRSS2): 1.6
Ki ([3]; read-out: Ki Factor Xa, 30 min preincubation, substrate Bz-Ile-Glu-Gly-Arg-pNA): 0.0941 µM
normalized fluorescence intensity, HEK293T TMPRSS2, Mean (Fig. 4b) ([4]; 0.5 nM): 64.65
normalized fluorescence intensity, HEK293T TMPRSS2, Mean (Fig. 4b) ([4]; 5 nM): 70.345
normalized fluorescence intensity, HEK293T TMPRSS2, Mean (Fig. 4b) ([4]; 50 nM): 54.405
normalized fluorescence intensity, HEK293T TMPRSS2, Mean (Fig. 4b) ([4]; 500 nM): 27.55
normalized fluorescence intensity, HEK293T TMPRSS2, Mean (Fig. 4b) ([4]; 5000 nM): 3.035
normalized fluorescence intensity, HEK293T TMPRSS2, Mean (Fig. 4b) ([4]; 50000 nM): -6.25
IC50 ([4]; read-out: IC50 HEK293T TMPRSS2, corrected for mock-transfected HEK293T cells): 0.0279 µM
SARS-CoV-2 spike driven entry, Mean (0 nM = 100) ([5]; compound 32 nM): 85.6235
SARS-CoV-2 spike driven entry, Mean (0 nM = 100) ([5]; compound 160 nM): 86.7995
SARS-CoV-2 spike driven entry, Mean (0 nM = 100) ([5]; compound 800 nM): 64.438
SARS-CoV-2 spike driven entry, Mean (0 nM = 100) ([5]; compound 4000 nM): 44.7705
SARS-CoV-2 spike driven entry, Mean (0 nM = 100) ([5]; compound 20000 nM): 12.775
SARS-CoV-2 spike driven entry, Mean (0 nM = 100) ([5]; compound 100000 nM): 2.464
IC50 ([5]; read-out: IC50 pseudotyped lentivirus Wuhan-Hu-1, Caco-2 cells, luciferase 2 days post transduction): 2.07 µM
SARS-CoV-2 spike driven entry, Mean (0 nM = 100) ([6]; compound 3.2 nM): 88.3815
SARS-CoV-2 spike driven entry, Mean (0 nM = 100) ([6]; compound 16 nM): 81.246
SARS-CoV-2 spike driven entry, Mean (0 nM = 100) ([6]; compound 80 nM): 81.0905
SARS-CoV-2 spike driven entry, Mean (0 nM = 100) ([6]; compound 400 nM): 76.6315
SARS-CoV-2 spike driven entry, Mean (0 nM = 100) ([6]; compound 2000 nM): 52.42
SARS-CoV-2 spike driven entry, Mean (0 nM = 100) ([6]; compound 10000 nM): 21.5405
SARS-CoV-2 spike driven entry, Mean (0 nM = 100) ([6]; compound 50000 nM): 4.0885
IC50 ([6]; read-out: IC50 pseudotyped lentivirus Alpha, Caco-2 cells, luciferase 2 days post transduction): 1.6 µM
SARS-CoV-2 spike driven entry, Mean (0 nM = 100) ([7]; compound 3.2 nM): 80.182
SARS-CoV-2 spike driven entry, Mean (0 nM = 100) ([7]; compound 16 nM): 79.3105
SARS-CoV-2 spike driven entry, Mean (0 nM = 100) ([7]; compound 80 nM): 77.8645
SARS-CoV-2 spike driven entry, Mean (0 nM = 100) ([7]; compound 400 nM): 68.1425
SARS-CoV-2 spike driven entry, Mean (0 nM = 100) ([7]; compound 2000 nM): 45.4625
SARS-CoV-2 spike driven entry, Mean (0 nM = 100) ([7]; compound 10000 nM): 19.5785
SARS-CoV-2 spike driven entry, Mean (0 nM = 100) ([7]; compound 50000 nM): 3.8345
IC50 ([7]; read-out: IC50 pseudotyped lentivirus Beta, Caco-2 cells, luciferase 2 days post transduction): 0.921 µM

From paper PMC9270327 (Communications Biology, 2022)
